Values of other authors as cited in patent publication US20190290621A1, “COMPOSITIONS AND METHODS FOR TREATING HIV-1 LATENCY” (priority 2017, published 2019).

The chains behind the UniProt entries cited, without tags or fusion partners.
UniProt Q13547, whole entry: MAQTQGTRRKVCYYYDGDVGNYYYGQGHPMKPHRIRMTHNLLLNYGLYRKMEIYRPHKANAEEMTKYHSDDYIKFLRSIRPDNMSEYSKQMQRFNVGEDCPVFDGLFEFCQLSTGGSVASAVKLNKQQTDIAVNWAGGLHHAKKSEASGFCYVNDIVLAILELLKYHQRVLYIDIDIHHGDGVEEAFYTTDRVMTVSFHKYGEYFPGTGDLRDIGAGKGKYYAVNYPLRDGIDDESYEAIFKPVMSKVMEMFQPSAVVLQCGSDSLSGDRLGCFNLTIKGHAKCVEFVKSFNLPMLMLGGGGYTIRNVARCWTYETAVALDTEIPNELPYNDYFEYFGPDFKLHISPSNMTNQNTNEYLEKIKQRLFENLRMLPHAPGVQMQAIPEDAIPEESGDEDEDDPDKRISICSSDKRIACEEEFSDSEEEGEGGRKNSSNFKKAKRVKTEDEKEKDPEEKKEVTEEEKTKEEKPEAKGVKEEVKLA
UniProt Q92769, whole entry: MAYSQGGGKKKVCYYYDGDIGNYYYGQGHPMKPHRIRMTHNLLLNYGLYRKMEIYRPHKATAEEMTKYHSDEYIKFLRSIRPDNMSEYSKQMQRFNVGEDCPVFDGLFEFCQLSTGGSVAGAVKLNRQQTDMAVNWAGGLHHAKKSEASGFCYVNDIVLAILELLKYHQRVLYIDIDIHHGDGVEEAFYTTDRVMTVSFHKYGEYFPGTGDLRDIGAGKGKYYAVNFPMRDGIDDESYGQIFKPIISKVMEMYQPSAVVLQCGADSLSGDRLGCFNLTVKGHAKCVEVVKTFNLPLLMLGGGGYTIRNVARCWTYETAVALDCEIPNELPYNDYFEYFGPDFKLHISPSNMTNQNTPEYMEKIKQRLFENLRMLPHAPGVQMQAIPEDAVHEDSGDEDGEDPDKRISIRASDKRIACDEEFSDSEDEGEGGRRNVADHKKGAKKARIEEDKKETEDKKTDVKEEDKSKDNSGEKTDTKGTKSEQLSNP

Legend:
HDAC1 = HDAC1 (Homo sapiens, UniProt Q13547); conditions: cited from earlier work
HDAC2 = HDAC2 (Homo sapiens, UniProt Q92769); conditions: cited from earlier work

For largazole [SDL148], the “potency against HDAC1” value (HDAC1) is given as “picomolar range” and the “potency against HDAC2” value (HDAC2) is given as “picomolar range”.
